Pooled drug test results. Numbers come from NIAID ChemDB, via PubChem.

Shared fields: growth or infection tests; agent: Hepatitis C virus; read-out: EC50

a–b is a range or a potency band. ECn: concentration that inhibits the pathogen or its effect by n%. Conditions beyond the fields shown may differ between rows.

CC(=O)O[C@H]1CC[C@]2(C)C3=CC[C@]4(C)[C@@H]([C@H](C)CC[C@H](O)C(C)(C)O)CC[C@@]4(C)[C@@H]3CC[C@H]2C1(C)C ; strain: Jc1 ; cells: n4mBid cells ; read by: ATP ; result: >100 µM
Cc1ccc(-c2cc(C[n+]3cc4[nH]c(-c5cccc(F)c5F)nc4cn3)on2)cc1 ; strain: Genotype 1A ; cells: Huh-luc/neo-ET ; read by: replicon ; result: 0.106 µM
CC1CCC(C(=O)N(c2cc(-c3ccc(NC(=O)c4cscn4)cc3)sc2C(=O)O)C2COCOC2)CC1 ; strain: 1a ; read by: replicon ; result: <0.5 µM
Fc1cccc(-c2nc3cn[n+](Cc4cc(-c5ccc(C(F)(F)F)nc5)no4)cc3[nH]2)c1F ; strain: genotype 1b ; cells: Huh-luc/neo-ET ; read by: replicon ; result: 0.313 µM
CC(=O)N1c2cccc(O)c2NC2=C(C(=O)CC(C)(C)C2)C1c1ccc(OCc2cccc(N)c2)cc1Cl ; strain: 1b ; read by: luciferase / reporter gene / replicon ; result: 10.4 µM
O=C(NCNC(=O)c1ccccc1)c1ccccc1 ; cells: Huh 7 replicon cells ; read by: GFP ; result: >50 µM
COC(=O)N[C@H](C(=O)N1CC2(CC2)C[C@H]1c1ncc(-c2ccc3c(c2)C(F)(F)c2cc(-c4ccc5nc([C@@H]6[C@H]7CC[C@H](C7)N6C(=O)[C@@H](NC(=O)OC)C(C)C)[nH]c5c4)ccc2-3)[nH]1)C(C)C ; strain: Genotype 6a ; cells: HCV replicon ; read by: replicon ; result: 0.00011 µM
CC(=O)c1ccc(C2Nc3cccc(O)c3NC3=C2C(=O)CC(C)(C)C3)cc1 ; strain: 1b ; read by: luciferase / reporter gene / replicon ; result: >100 µM
Cc1ccc(-n2ncc3c(Nc4ccc(S(N)(=O)=O)cc4)ncnc32)c(C)c1 ; cells: HUH 9B ; read by: replicon ; result: <1 µM
CCOc1cc(N2CCOCC2)ccc1Nc1ncnc2ccc(-c3nccs3)cc12 ; strain: 1b ; cells: Huh ; read by: luciferase ; result: <1 µM
Cc1ccc(-n2ncc3c(NC(=O)Nc4ccc(C)c(C)c4)ncnc32)c(C)c1 ; cells: HUH 9B ; read by: replicon ; result: <1 µM
CC1CCC(C(=O)N(c2cc(-c3ccc(NC(=O)c4cscn4)cc3)sc2C(=O)[O-])C(C)C)CC1.C[NH2+]C[C@H](O)[C@@H](O)[C@H](O)[C@H](O)CO ; strain: 1a ; read by: replicon ; result: <0.5 µM
O=C(NCc1ccc(Cl)cc1)c1nc2ccccc2c(=O)n1O ; strain: 1b ; cells: Ava5 ; read by: replicon ; result: 76.3 µM
CC(C)C(=O)N1c2cccc(O)c2NC2=C(C(=O)CC(C)(C)C2)C1c1ccc(COc2ccc(F)cc2F)o1 ; strain: 1b ; read by: luciferase / reporter gene / replicon ; result: 4.33 µM
COC(=O)N[C@H](C(=O)N1CCC[C@H]1C(=O)Cc1ccc(-c2ccc(NC(=O)[C@@H]3CCCN3C(=O)[C@@H](NC(=O)OC)C(C)C)cc2)cc1)C(C)C ; strain: GT2a ; cells: Huh7.5.1 ; read by: luciferase / reporter gene ; result: 0.12 µM
O=C(NCc1ccc(Cl)c(Cl)c1)c1nc2ccccc2c(=O)n1O ; strain: 1b ; cells: Ava5 ; read by: replicon ; result: 33.8 µM
OCC1CCC(c2ccc3ncnc(Nc4ccc(C5CCOCC5)cc4)c3c2)O1 ; strain: 1b ; cells: Con1-SR ; result: 0.29 µM
COc1ccc(-c2cc(C[n+]3cc4[nH]c(-c5cccc(F)c5F)nc4cn3)on2)cc1 ; strain: Genotype 1A ; cells: Huh-luc/neo-ET ; read by: replicon ; result: 0.328 µM
COc1ccc(Cl)cc1Nc1ncnc2c1cnn2-c1ccc(F)cc1F ; cells: HUH 9B ; read by: replicon ; result: >10 µM
O=C(NCc1cccc(Cl)c1)c1nc2ccccc2c(=O)n1O ; strain: 1b ; cells: Ava5 ; read by: replicon ; result: 29.6 µM
CO[C@@H]1CC[C@]2(C)C3=CC[C@]4(C)[C@@H]([C@H](C)CC[C@H](O)C(C)(C)O)CC[C@@]4(C)[C@@H]3CC[C@H]2C1(C)C ; strain: Jc1 ; cells: n4mBid cells ; read by: ATP ; result: 3.73 µM
Cc1ccc(-n2ncc3c(Nc4ccc(-c5cnco5)cc4)ncnc32)c(C)c1 ; cells: HUH 9B ; read by: replicon ; result: <1 µM
COC(=O)N[C@H](C(=O)N1CCC[C@H]1c1ncc(-c2ccc(-c3ccc(-c4cnc([C@@H]5CCCN5C(=O)[C@@H](NC(=O)OC)C(C)C)[nH]4)cc3)cc2)[nH]1)C(C)C ; strain: 1b ; mutations: L31W ; cells: ET ; read by: luciferase ; result: 0.0003 µM
CCN(CC)[C@@H](C(=O)N1CCC[C@H]1C(=O)Cc1ccc(-c2ccc(NC(=O)[C@@H]3CCCN3C(=O)[C@@H](c3ccccc3)N(CC)CC)cc2)cc1)c1ccccc1 ; strain: GT2a ; cells: Huh7.5.1 ; read by: luciferase / reporter gene ; result: 0.0022 µM
COCCN(C(=O)C1CCC(C)CC1)c1cc(-c2ccc(NC(=O)c3cscn3)cc2)sc1C(=O)O ; strain: 1a ; read by: replicon ; result: <0.5 µM
C#Cc1cn([C@@H]2O[C@H](CO)[C@@H](O)[C@@]2(C)O)c2ncnc(N)c12 ; cells: ET ; read by: replicon ; result: 0.09 µM
Fc1cccc(-c2nc3cn[n+](Cc4cc(-c5ccc(C(F)(F)F)cc5C(F)(F)F)no4)cc3[nH]2)c1 ; strain: genotype 1b ; cells: Huh-luc/neo-ET ; read by: replicon ; result: 50 µM
O=C(NCc1ccccc1Cl)c1nc2ccccc2c(=O)n1O ; strain: 1b ; cells: Ava5 ; read by: replicon ; result: 36.3 µM
Cc1ccc(-n2ncc3c(NC(=O)Nc4cccc(C(F)(F)F)c4)ncnc32)c(C)c1 ; cells: HUH 9B ; read by: replicon ; result: <1 µM
CCC#Cc1cn([C@@H]2O[C@H](CO)[C@@H](O)[C@@]2(C)O)c2ncnc(N)c12 ; cells: ET ; read by: replicon ; result: >50 µM
Cc1ccc(-n2ncc3c(Nc4ccc(C#N)c(Cl)c4)ncnc32)c(C)c1 ; cells: HUH 9B ; read by: replicon ; result: 1–10 µM
C[C@@]1(O)[C@H](O)[C@@H](CO)O[C@H]1n1cnc2c(N)ncnc21 ; strain: Jc1 ; cells: n4mBid ; read by: ATP ; result: 0.09 µM
COC(=O)N[C@@H](C(=O)N1CCC[C@H]1C(=O)Cc1ccc(-c2ccc(NC(=O)[C@@H]3CCCN3C(=O)[C@H](NC(=O)OC)c3ccccc3)cc2)cc1)c1ccccc1 ; strain: GT2a ; cells: Huh7.5.1 ; read by: luciferase / reporter gene ; result: 0.00026 µM
CNC(=O)c1c(-c2ccc(F)cc2)oc2cc(N(CCO)S(C)(=O)=O)c(C3CC3)cc12 ; strain: H77 genotype 1a ; cells: Huh7.5 ; read by: luciferase ; result: 0.0261 µM
COc1cc2oc(-c3ccc(O)cc3)c(OC)c(=O)c2c(O)c1C ; strain: Jc1 ; cells: n4mBid cells ; read by: ATP ; result: 2.25 µM
O=C(NCc1ccc(F)cc1)c1nc2ccccc2c(=O)n1O ; strain: 1b ; cells: Ava5 ; read by: replicon ; result: 54.4 µM
CCCOc1ccc(-c2cc(C(C(=O)OCCOCCO)[n+]3cc4[nH]c(-c5cccc(F)c5F)nc4cn3)on2)c(C(F)(F)F)c1 ; strain: genotype 1b ; cells: Huh-luc/neo-ET ; read by: replicon ; result: 0.00337 µM
CC1CCC(C(=O)N(c2cc(-c3ccc(NC(=O)c4cscn4)c(C(F)(F)F)c3)sc2C(=O)O)C(C)C)CC1 ; strain: 1b ; read by: replicon ; result: <0.5 µM
Cc1ccc(-n2ncc3c(NCCc4ccc(S(N)(=O)=O)cc4)ncnc32)c(C)c1 ; cells: HUH 9B ; read by: replicon ; result: 1–10 µM
CC(C)C(=O)N1c2cccc(O)c2NC2=C(C(=O)CC(C)(C)C2)[C@@H]1c1ccc(O[C@H](C)c2ccccc2)cc1F ; strain: 1b ; read by: luciferase / reporter gene / replicon ; result: 3.63 µM
O=C(NCCc1ccccc1)c1nc2ccccc2c(=O)n1O ; strain: 1b ; cells: Ava5 ; read by: replicon ; result: 28.7 µM
COc1cc(-c2cc(N(C(=O)C3CCC(C)CC3)C(C)C)c(C(=O)O)s2)ccc1NC(=O)c1cscn1 ; strain: 1b ; read by: replicon ; result: <0.5 µM
CCCCCCCCCCCCCCOC(=O)NC(CCC(=O)O)(CCC(=O)O)CCC(=O)O ; strain: 1b ; cells: Huh7-Luc ; read by: replicon / PCR ; result: 0.013 µM

Repeating the final 5 entries:

Cc1ccc(-n2ncc3c(NCCc4ccc(S(N)(=O)=O)cc4)ncnc32)c(C)c1 ; cells: HUH 9B ; read by: replicon ; result: 1–10 µM
CC(C)C(=O)N1c2cccc(O)c2NC2=C(C(=O)CC(C)(C)C2)[C@@H]1c1ccc(O[C@H](C)c2ccccc2)cc1F ; strain: 1b ; read by: luciferase / reporter gene / replicon ; result: 3.63 µM
O=C(NCCc1ccccc1)c1nc2ccccc2c(=O)n1O ; strain: 1b ; cells: Ava5 ; read by: replicon ; result: 28.7 µM
COc1cc(-c2cc(N(C(=O)C3CCC(C)CC3)C(C)C)c(C(=O)O)s2)ccc1NC(=O)c1cscn1 ; strain: 1b ; read by: replicon ; result: <0.5 µM
CCCCCCCCCCCCCCOC(=O)NC(CCC(=O)O)(CCC(=O)O)CCC(=O)O ; strain: 1b ; cells: Huh7-Luc ; read by: replicon / PCR ; result: 0.013 µM